Laboratory results reported in paper PMC6429159, “Evolution and Biological Evaluation of Matrinic Derivatives with Amantadine Fragments As New Anti-Influenza Virus Agents” (Molecules, 2019).
Structures can show the parent of a compound that is named as a salt. Where two headings read alike, the source gives them in different places.

Tests used:
[1] = system: influenza virus A/hanfang/359/95 (H3N2); assay type: cell-based
[2] = system: influenza virus A/Fort Monmouth/1/1947 (H1N1); assay type: cell-based

| SMILES | H3N2, A/hanfang/359/95 SI [1] | further results |
| --- | --- | --- |
| O=C(OCCCC[C@@H]1[C@H]2CCCN3CCC[C@@H](CN1S(=O)(=O)c1cccc(C(F)(F)F)c1)[C@@H]23)C12CC3CC(CC(Br)(C3)C1)C2 [Compound 9f, 12N-m-Trifluoromethlybenzenesulfonylmatrinicbutyl-3’-bromoadamantane-1’-carboxylate hydrochloride] |  | H3N2, A/hanfang/359/95 SI ([1]; selectivity index = TC50/IC50): 10.6; H1N1, A/Fort Monmouth/1/1947 SI ([2]; selectivity index = TC50/IC50): 3.2 |
| O=C(CC1CC2CCC1C2)OCCCC[C@@H]1[C@H]2CCCN3CCC[C@@H](CN1S(=O)(=O)c1ccc(C(F)(F)F)cc1)[C@@H]23 (stereo partly shown) [Compound 9i, 12N-p-Trifluoromethlybenzenesulfonyl matrinic butyl-2’-norbornane acetate hydrochloride] | 5.0 |  |
| O=C(CC12CC3CC(CC(C3)C1)C2)OCCCC[C@@H]1[C@H]2CCCN3CCC[C@@H](CN1S(=O)(=O)c1cccc(C(F)(F)F)c1)[C@@H]23 [Compound 9e, 12N-m-Trifluoromethlybenzenesulfonyl matrinic butyl-1’-adamantaneacetatehydrochloride] | 5.7 |  |
| CCCC[C@@H]1[C@H]2CCCN3CCC[C@@H](CN1S(=O)(=O)c1cccc(C(F)(F)F)c1)[C@@H]23 [Compound 7b] | 3.0 |  |
| CCCC[C@@H]1[C@H]2CCCN3CCC[C@@H](CN1S(=O)(=O)c1ccccc1C(F)(F)F)[C@@H]23 [Compound 7c] | 1.7 |  |
| CC(C)(C)C(=O)OCCCC[C@@H]1[C@H]2CCCN3CCC[C@@H](CN1S(=O)(=O)c1cccc(C(F)(F)F)c1)[C@@H]23 [Compound 9l, 12N-m-Trifluoromethlybenzenesulfonyl matrinicbutylpivalate hydrochloride] | 2.9 |  |
| O=C(OCCCC[C@@H]1[C@H]2CCCN3CCC[C@@H](CN1S(=O)(=O)c1ccc(C(F)(F)F)cc1)[C@@H]23)C12CC3CC(CC(Br)(C3)C1)C2 [Compound 9c, 12N-p-Trifluoromethlybenzenesulfonylmatrinicbutyl-3’-bromoadamantane-1’-carboxylate hydrochloride] | 9.0 | H1N1, A/Fort Monmouth/1/1947 SI [2]: 2.7 |
| O=C(CC1CC2CCC1C2)OCCCC[C@@H]1[C@H]2CCCN3CCC[C@@H](CN1S(=O)(=O)c1cccc(C(F)(F)F)c1)[C@@H]23 (stereo partly shown) [Compound 9j, 12N-m-Trifluoromethlybenzenesulfonyl matrinic butyl-2’-norbornane acetate hydrochloride] |  | H3N2, A/hanfang/359/95 SI ([1]; selectivity index = TC50/IC50): 10.8; H1N1, A/Fort Monmouth/1/1947 SI ([2]; selectivity index = TC50/IC50): 4.9 |
| O=C(CC12CC3CC(CC(C3)C1)C2)OCCCC[C@@H]1[C@H]2CCCN3CCC[C@@H](CN1S(=O)(=O)c1ccc(C(F)(F)F)cc1)[C@@H]23 [Compound 9b, 12N-p-Trifluoromethlybenzenesulfonyl matrinic butyl-1’-adamantaneacetatehydrochloride] | 2.2 |  |
| CCCC[C@@H]1[C@H]2CCCN3CCC[C@@H](CN1S(=O)(=O)c1ccc(C(F)(F)F)cc1)[C@@H]23 [Compound 7a] | 3.8 |  |
| O=C(OCCCC[C@@H]1[C@H]2CCCN3CCC[C@@H](CN1S(=O)(=O)c1cccc(C(F)(F)F)c1)[C@@H]23)C12CC3CC(CC(C3)C1)C2 [Compound 9d, 12N-m-Trifluoromethlybenzenesulfonyl matrinic butyl adamantine-1’-carboxylate hydrochloride] | 9.2 | H1N1, A/Fort Monmouth/1/1947 SI [2]: 2.5 |
| O=C(OCCCC[C@@H]1[C@H]2CCCN3CCC[C@@H](CN1S(=O)(=O)c1ccc(C(F)(F)F)cc1)[C@@H]23)C12CC3CC(CC(C3)C1)C2 [Compound 9a, 12N-p-Trifluoromethlybenzenesulfonyl matrinic butyl adamantine-1’-carboxylate hydrochloride] | 1.2 |  |
